# Screening data, single-dose tests

A: 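Phenotypic screen: M. tuberculosis growth, glucose 7H9 medium, 3 days; the read-out is not stated. Compounds at 500 µM. The record gives no direction; compounds that gave an IC50 in retests scored well above the rest, so higher reads as more growth inhibition. Of about 18,000 compounds tested this way, about 1,400 (7.9%) reached 50% or more in at least one test.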
B: 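Phenotypic screen: M. tuberculosis growth, cholesterol and DPPC medium, 4 days; the read-out is not stated. Tested at 500 µM. Higher reads as more growth inhibition (inferred: compounds with an IC50 in retests scored well above the rest). Size under these conditions: about 18,000 compounds, about 900 of them at 50% or above in at least one test.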

The filed quantity is “Percent Effect” (%). How 0% and 100% were set is not recorded. Most values in the screen are low, and negative values occur. Many other results are left out here, so strong results are more common than in the screen. A dash means the value is not listed here; it may have been measured.

* Nc1ccc(C(=O)NCC2(Cn3cccn3)CC2)cn1 | B: 0.1383%
* COc1ccc(CN(C)C(=O)N2CCOCC2)cc1F | A: 35.59%; B: 37.73%
* Cc1occc1C(=O)N(C)Cc1cnn(C)c1 | B: -29.02%
* c1ccc(-c2noc(CN3CCCC3)n2)cc1 | A: 72.52%; B: 17.46%
* CNC(=O)CCCNC(=O)OC(C)(C)C | A: 11.93%
* C=Cc1nnnn1-c1ccccc1 | A: 13.02%; B: 14.7%
* COc1ccc(CN2CCCCC2C)cn1 (centres unmarked) | B: -4.669%
* CCC=C(C)C(=O)NCC(C)N1CCN(CC)CC1 (centres unmarked) | A: 37.19%; B: 1.858%
* Cc1cnn(CCNCc2ccc(C(N)=O)cc2)c1 | B: 2.82%
* CNC(=O)CN(C)C1CCCc2ccccc21 (centres unmarked) | A: -3.271%
* CC(C)N1CCN(c2ccc3nnnn3n2)CC1 | A: 3.152%
* NS(=O)(=O)CC1CCNCC1 | A: -6.367%
* O=C1NCC(C(=O)N2CCCCCC2)N1 (centres unmarked) | A: 7.85%
* OCCOc1ccc(NCc2ccsc2)cn1 | B: -20.84%
* O=C1CCC(C(=O)NCC(CO)Cc2cccs2)=NN1 (centres unmarked) | A: 17.26%
* CN1CC[C@H]2CN(C(=O)CCCn3cccn3)C[C@H]21 | A: 11.12%
* Cc1n[nH]cc1CNC(C)CO (centres unmarked) | A: -2.67%
* CCNC(=O)CNc1ccc2c(Cl)ccnc2c1F | B: 2.552%
* CC(C)OCCS(=O)(=O)N(C)Cc1ccco1 | A: 67.17%; B: 72.25%
* CC(C)c1cccc(S(=O)(=O)N2CCCC2CN)c1 (centres unmarked) | A: 64.67%
* Cn1nc2n(c1=O)CCN(Cc1ccc(Br)o1)CC2 | B: -16.73%
* CC[C@H](CO)NS(=O)(=O)c1c(F)cc(C#N)cc1F | B: 7.883%
* O=C1CCN(CC(=O)c2ccccc2F)CCN1 | A: -7.609%
* CCC(=O)NCC(c1ccsc1)N(C)C (centres unmarked) | A: 9.3%
* Cc1nonc1OCCNC(=O)C1CCCCCN1C (centres unmarked) | A: 9.307%
* CCO[C@@H]1COCC[C@H]1NC(=O)CCc1csc(N)n1 | B: 6.656%
* CC(=O)N(CC1CCCN1)C1CC1 (centres unmarked) | A: 14.07%
* CCSCCNC(=O)c1ccc(-n2ccnc2)cc1 | B: 18.85%
* N[C@@H]1CCN(Cc2ccc(F)c(C(F)(F)F)c2)C[C@H]1O | A: 48.94%; B: 29.54%
* NCC(=O)N1CCN(c2ccc(Cl)cc2)CC1 | B: -3.376%
* COC(=O)CCCC(=O)N(C)c1ccccc1F | A: 38.02%
* O[C@@H]1CNC[C@H](O)C1 | A: 5.407%; B: 91.26%
* Cc1cc(NC(=O)Cn2ncn(C)c2=O)cc(C)c1Br | A: 0.2138%
* COc1ccc(C2=NN=C(NC3CC3)SC2)cc1OC | A: 25.49%; B: 6.802%
* CCCOc1ccc(CN2CCOC(CN)C2)cc1 (centres unmarked) | B: -4.272%
* CC(C)n1cc(Br)cc1C(=O)NCCCO | A: -10.56%
* NC(=O)CN1CCCN(c2nccs2)CC1 | A: 13.89%
* CNS(=O)(=O)c1ccc2c(c1)CCN2C(C)=O | B: 12.01%
* CC(C)C[C@H](N)c1nnc2ccccn12 | B: 13.38%
* NC(=O)C1CCCN(C(=O)COCc2ccccc2)C1 (centres unmarked) | A: 6.246%

Repeated from the top, 4 entries:

| compound | A | B |
|---|---|---|
| `Nc1ccc(C(=O)NCC2(Cn3cccn3)CC2)cn1` | - | 0.1383 |
| `COc1ccc(CN(C)C(=O)N2CCOCC2)cc1F` | 35.59 | 37.73 |
| `Cc1occc1C(=O)N(C)Cc1cnn(C)c1` | - | -29.02 |
| `c1ccc(-c2noc(CN3CCCC3)n2)cc1` | 72.52 | 17.46 |

Data taken from ChEMBL document CHEMBL3988442, “University of Dundee, Small-Polar-MMV Screening Library” (2021).